A mixed list of measured activities; the numbers were collected in NIAID ChemDB.

Common to all: tests in culture; agent: Human herpesvirus 6; read-out: EC50

Conditions beyond the fields shown may differ between rows. An empty or dashed field is not shown. ECn is the concentration giving n% inhibition of infection, replication or growth.

structure	strain	cells	method	value
NC(=O)c1c(Cl)c(-c2cccnc2)n2c1CCCC2	TYPE B (Z29)	SupT1	hybridisation	0.058 µM
Cc1c(S(=O)(=O)c2ccc(Cl)cc2)c(NC(=O)C(F)(F)F)n(Cc2ccccc2)c1C	Z29 (TYPE 6B)	MOLT-3	hybridisation	10 µg/mL
Nc1nc2c(ncn2[C@@H]2C=C[C@H](CO)CC2)c(=O)[nH]1		Human T-lymphoblasts	cytopathic effect	3.9 µM
Cn1cc(C(=O)NCc2ccc(Cl)cc2)c(=O)c2cc(CN3CCOCC3)ccc21	Z-29 (TYPE B)	CBL	antigen / flow cytometry	>22 µM
N#CC1C(c2ccc(Cl)cc2)Nc2sccc2S1(=O)=O	Z29 (TYPE 6B)	MOLT-3	hybridisation	1.8 µg/mL
C[C@H]1O[C@H](n2c(Br)nc3cc(Cl)c(Cl)cc32)[C@@H](O)[C@H]1O	6a	HSB-2	hybridisation	10 µM
Nc1nc2c(ncn2COC(CO)CO)c(=O)[nH]1		Human cord blood lymphocytes		1.3 µM
N#CC1C(c2ccc(Cl)cc2)Nc2c(ccn2Cc2ccccc2)S1(=O)=O	GS (TYPE 6A)	HSB-2	cytopathic effect	>20 µg/mL
CC(C)Nc1nc2cc(Cl)c(Cl)cc2n1[C@H]1O[C@@H](CO)[C@H](O)[C@@H]1O	GS (subtype 6A)	SupT1	flow cytometry	>133 µM
Nc1ncc2c(ncn2COC(CO)CO)n1		Human cord blood lymphocytes		0.012 µM
COc1nc(N)nc2c1ncn2/C=C1/CC1(CO)CO	TYPE 6B	HSB-2	flow cytometry	2.2 µM
Nc1ccn(C[C@@H](CO)OCP(=O)(O)O)c(=O)n1	GS (subtype 6A)	SupT1	flow cytometry	>11.7 µM
O[C@@H]1[C@H](O)[C@H](O)CO[C@H]1n1c(Br)nc2cc(Cl)c(Cl)cc21	6B	MOLT-3	hybridisation	>30 µM
N#CC1C(c2ccc(Cl)cc2)Nc2ccccc2S1(=O)=O	Z29 (TYPE 6B)	MOLT-3	cytopathic effect	1.5 µg/mL
O[C@@H]1[C@H](O)CO[C@H]1n1c(NC2CC2)nc2cc(Cl)c(Cl)cc21	6B	MOLT-3	hybridisation	>100 µM
Nc1nc2c(ncn2C[C@]2(CO)C[C@H]2CO)c(=O)[nH]1	TYPE 6A	MOLT-3		3.4 µg/mL
CC(C)Nc1nc2cc(Cl)c(Cl)cc2n1[C@H]1O[C@H](C)[C@H](O)[C@@H]1O	6B	MOLT-3	hybridisation	>100 µM
Cn1cc(C(=O)NCc2ccc(Cl)cc2)c(=O)c2cc(CN3CCOCC3)ccc21	1 isolates		cytopathic effect	>100 µM
OC[C@H]1CC(n2c(NC3CC3)nc3cc(Cl)c(Cl)cc32)[C@H](O)[C@@H]1O	6a	HSB-2	hybridisation	>20 µM
Nc1ccn(/C=C2/CC2(CO)CO)c(=O)n1	TYPE 6B	HSB-2	flow cytometry	22.8 µM
CC(C)Nc1nc2cc(Cl)c(Cl)cc2n1[C@@H]1OC[C@@H](O)[C@H]1O	6B	MOLT-3	hybridisation	83 µM
Nc1nc(NC2CC2)c2ncn(/C=C3/C[C@@H]3CO)c2n1	TYPE 6B	CBL	flow cytometry	1.6 µM

The first 2 rows once more:

structure | strain | cells | method | value
NC(=O)c1c(Cl)c(-c2cccnc2)n2c1CCCC2 | TYPE B (Z29) | SupT1 | hybridisation | 0.058 µM
Cc1c(S(=O)(=O)c2ccc(Cl)cc2)c(NC(=O)C(F)(F)F)n(Cc2ccccc2)c1C | Z29 (TYPE 6B) | MOLT-3 | hybridisation | 10 µg/mL